Compound potency records, mixed from different reports. Data source: NIAID ChemDB in PubChem.

Shared fields: tests in culture; agent: Varicella zoster virus; cell line: HFF; measure: EC50

ECn: concentration that inhibits the pathogen or its effect by n%. Blank or dashed fields: not listed here. Neighbouring rows are from separate reports. Two numbers with a dash give a range or band.

structure	strain	read by	value
Nc1nc2c(ncn2[C@H]2C[C@@]23C[C@@H]3CO)c(=O)[nH]1		plaque count	>399 µM
COC(=O)[C@H](C)NP(=O)(OC[C@H]1C/C1=C\n1cnc2c(N)nc(N)nc21)Oc1ccccc1		plaque count	>211 µM
Nc1nc(F)nc2c1ncn2/C=C1/CC1CO		cytopathic effect	>4 µM
COC(=O)[C@H](C)NP(=O)(OC[C@H]1C/C1=C/n1cnc2c(N)nc(N)nc21)Oc1ccccc1		plaque count	1 µM
C=C1[C@H](CO)[C@@H](O)C[C@@H]1n1cnc2c(=O)[nH]c(N)nc21	ELLEN		30–60 µM
COC(=O)[C@H](C)NP(=O)(OC[C@@H]1C[C@]12C[C@@H]2n1cnc2c(N)ncnc21)Oc1ccccc1		plaque count	>8.5 µM
Nc1[nH]c(=O)nc2c1ncn2/C=C1/C[C@@H]1CO		cytopathic effect	>85.8 µM
Nc1nc2c(ncn2COCCO)c(=O)[nH]1		plaque count	3.5 µM
COC(=O)[C@H](C)NP(=O)(OC[C@@H]1C[C@]12C[C@@H]2n1cnc2c(N)ncnc21)Oc1ccccc1		plaque count	>8.5 µM
Nc1ncnc2c1ncn2[C@@H]1C[C@@H](O)[C@H](CO)O1			>100 µM
Nc1nc2c(ncn2[C@H]2C[C@]23C[C@@H]3CO)c(=O)[nH]1		plaque count	>399 µM
COC(=O)[C@H](C)NP(=O)(OC[C@H]1C/C1=C\n1cnc2c(=O)[nH]c(N)nc21)Oc1ccccc1		plaque count	>211 µM
Nc1ncnc2c1ncn2[C@@H]1C[C@@H](O)[C@H](CO)O1			>100 µM
Nc1nc2c(ncn2[C@H]2C[C@@]23C[C@H]3CO)c(=O)[nH]1		plaque count	>399 µM

For reference, 2 entries again:

{"structure": "Nc1nc2c(ncn2[C@H]2C[C@]23C[C@@H]3CO)c(=O)[nH]1", "read by": "plaque count", "value": ">399 µM"}
{"structure": "Nc1nc(F)nc2c1ncn2/C=C1/CC1CO", "read by": "cytopathic effect", "value": ">4 µM"}